Pooled drug test results. Numbers come from NIAID ChemDB, via PubChem.

Shared fields: growth or infection tests; agent: HIV-1; read by: p24 / antigen; endpoint: EC50

ECn: concentration that inhibits the pathogen or its effect by n%. Rows are shuffled and stem from different studies. An empty or dashed field is not shown.

{"SMILES": "CC1(C)C2CC[C@]3(C)C(C(=O)C=C4C5C[C@@](C)(C(=O)Nc6ccccn6)CC[C@]5(C)CC[C@]43C)[C@@]2(C)CC[C@@H]1O[C@H]1O[C@H](C(=O)Nc2ccccn2)[C@@H](O)[C@H](O)[C@H]1O[C@@H]1O[C@H](C(=O)Nc2ccccn2)[C@@H](O)[C@H](O)[C@H]1O", "cell line": "MT-4", "strain": "EVK", "result": "3100 µg/mL"}
{"SMILES": "C#C[C@]1(CO)O[C@@H](n2cnc3c(N)nc(F)nc32)C[C@@H]1O", "cell line": "PBMC", "strain": "NL4-3", "result": "0.00005 µM"}
{"SMILES": "O=C(/C=C/c1ccc(O)c2c1[C@H](C(=O)O)[C@@H](c1ccc(O)c(O)c1)O2)O[C@H](Cc1ccc(O)c(O)c1)C(=O)O", "cell line": "MT-4", "strain": "IIIB", "result": "3.99 µg/mL"}
{"SMILES": "C[C@H](Cn1cnc2c(N)ncnc21)OCP(=O)(O)O", "cell line": "PBMC", "strain": "NL4-3", "result": "3.3 µM"}
{"SMILES": "O=C(/C=C/c1ccc(O)c2c1[C@H](C(=O)O)[C@H](c1ccc(O)c(O)c1)O2)O[C@H](Cc1ccc(O)c(O)c1)C(=O)O", "cell line": "MT-4", "strain": "IIIB", "result": "6.11 µg/mL"}
{"SMILES": "CN(C[C@@H](CCN1CCC2(CC1)CS(=O)c1ccccc12)c1cccc(Cl)c1)S(=O)(=O)c1ccccc1", "cell line": "PBMC", "strain": "M-tropic YU-2", "result": "<1.5 µM"}
{"SMILES": "Cc1cn([C@H]2C[C@H](N=[N+]=[N-])[C@@H](CO)O2)c(=O)[nH]c1=O", "cell line": "MT-4", "result": "0.022 µM"}
{"SMILES": "CN(C[C@@H](CCN1CCC2(CC1)CS(=O)(=O)c1ccccc12)c1cccc(Cl)c1)S(=O)(=O)c1ccccc1", "cell line": "PBMC", "strain": "M-tropic YU-2", "result": "<8 µM"}
{"SMILES": "Cc1cn([C@H]2C=C[C@@H](CO)O2)c(=O)[nH]c1=O", "cell line": "MT-4", "result": "0.27 µM"}
{"SMILES": "CN(C[C@@H](CCN1CCC2(CC1)CS(=O)c1ccccc12)c1ccc(Cl)c(Cl)c1)S(=O)(=O)c1ccccc1", "cell line": "PBMC", "strain": "M-tropic YU-2", "result": "<10 µM"}
{"SMILES": "Cc1cn([C@H]2C=C[C@@H](COP(=O)(Nc3cc(C(=O)NCCC(=N)N)n(C)c3)OC(C)C)O2)c(=O)[nH]c1=O", "cell line": "MT-4", "result": "0.22 µM"}
{"SMILES": "C#C[C@]1(CO)O[C@@H](n2cnc3c(N)ncnc32)C[C@@H]1O", "cell line": "PBMC", "strain": "NL4-3", "result": "0.011 µM"}
{"SMILES": "CC(=N)CCNC(=O)c1cc(NC(=O)c2cc(NC(=O)c3cc(NP(=O)(OC[C@@H]4C=C[C@H](n5cc(C)c(=O)[nH]c5=O)O4)OC4CCCCC4)cn3C)cn2C)cn1C", "cell line": "MT-4", "result": "0.17 µM"}
{"SMILES": "CC[C@@]1(O)C(=O)OCc2c1cc1n(c2=O)Cc2cc3cc(O)ccc3nc2-1", "cell line": "PBMC", "strain": "KM018", "result": "0.0105 µg/mL"}
{"SMILES": "Cn1cc(NC(=O)c2cc(NC(=O)c3cc([N+](=O)[O-])cn3C)cn2C)cc1C(=O)NCCC(=N)N", "cell line": "MT-4", "result": ">100 µM"}
{"SMILES": "O=C(/C=C/c1ccc(O)c(O)c1/C=C/c1ccc(O)c(O)c1)O[C@H](Cc1ccc(O)c(O)c1)C(=O)O", "cell line": "MT-4", "strain": "IIIB", "result": "2.07 µg/mL"}
{"SMILES": "Cc1cn([C@H]2C=C[C@@H](COP(=O)(Nc3cc(C(=O)Nc4cc(C(=O)NCCC(=N)N)n(C)c4)n(C)c3)OC(C)C)O2)c(=O)[nH]c1=O", "cell line": "MT-4", "result": "0.2 µM"}
{"SMILES": "Cc1cn([C@H]2C=C[C@@H](CO)O2)c(=O)[nH]c1=O", "cell line": "MT-4", "result": "0.002 µg/mL"}

Repeating the final 2 entries:

SMILES | cell line | strain | result
Cc1cn([C@H]2C=C[C@@H](COP(=O)(Nc3cc(C(=O)Nc4cc(C(=O)NCCC(=N)N)n(C)c4)n(C)c3)OC(C)C)O2)c(=O)[nH]c1=O | MT-4 | - | 0.2 µM
Cc1cn([C@H]2C=C[C@@H](CO)O2)c(=O)[nH]c1=O | MT-4 | - | 0.002 µg/mL